Pooled drug test results. Numbers come from NIAID ChemDB, via PubChem.

Shared fields: toxicity to cultured cells; cells: MT-4; read-out: CC50

CCn is the concentration with n% toxicity to the cells. Lines come from different laboratories, so protocols vary. An empty or dashed field is not shown.

{"SMILES": "Cc1cccc(N2C(=O)CSC2c2c(F)cccc2F)c1", "result": "207.8 µM"}
{"SMILES": "CCOC(=O)c1c(C)n([C@H]2C[C@@H]2c2ccccc2)c2ccc(O)cc12", "method": "MTT", "result": ">250 µM"}
{"SMILES": "CC1COc2c(N3CCN(c4ccccn4)CC3)c(F)cc3c(=O)c(C(=O)O)cn1c23", "result": "17 µg/mL"}
{"SMILES": "C[C@H](CCC=C(c1cc(Cl)c(O)c(C(=O)O)c1)c1cc(Cl)c(O)c(C(=O)O)c1)[C@H]1CC[C@H]2[C@@H]3CC[C@@H]4CCCC[C@]4(C)[C@H]3CC[C@]12C", "result": "31.4 µM"}
{"SMILES": "CCS[C@]12CS(=O)(=O)O[C@@]13[C@@H](CN2)O[C@@H](n1cc(C)c(=O)[nH]c1=O)[C@@H]3O", "result": "208 µM"}
{"SMILES": "Cc1cc(C#N)cc(C)c1Oc1nc(Nc2ccc(C#N)cc2)ncc1C#CC(=O)NCCCN1CCOCC1", "method": "MTT", "result": "59.2 µM"}
{"SMILES": "Cc1cn([C@H]2C[C@H](N=[N+]=[N-])[C@@H](CO)O2)c(=O)[nH]c1=O", "method": "absorbance", "result": "222 µM"}
{"SMILES": "O=C(/C=C/c1ccc(F)cc1)c1ccccc1O", "method": "MTT", "result": "80.73 µM"}
{"SMILES": "CCn1cc(C(=O)O)c(=O)c2cc(F)c(N3CCN(c4ncccn4)CC3)c(OC(F)F)c21", "result": ">40 µg/mL"}
{"SMILES": "O=C1CSC(c2c(Cl)cccc2Cl)N1c1cccc(Cl)c1", "result": "30.67 µM"}
{"SMILES": "COC(=O)[C@H](C)NC(O)(Oc1ccccc1)Oc1nc(N(C)C)nc(C(C)c2c(F)cccc2F)c1C", "method": "MTT", "result": "25 µM"}
{"SMILES": "O=C(/C=C/c1ccc(Cl)cc1)c1ccccc1O", "method": "MTT", "result": "200 µM"}
{"SMILES": "COc1c2ccoc2c(S(=O)(=O)Oc2ccc(F)cc2)c2oc(C)cc(=O)c12", "method": "MTT", "result": "530 µM"}
{"SMILES": "COc1ccccc1N1CCN(c2c(F)c(N)c3c(=O)c(C(=O)O)cn(C(C)C)c3c2OC(F)F)CC1", "result": "1.1 µg/mL"}
{"SMILES": "Cc1ncc(COP(=O)(O)O)c(C=O)c1O", "result": "1250 µM"}
{"SMILES": "Cc1ccnc2c1NC(=O)c1cccnc1N2C1CC1", "method": "MTT", "result": ">15 µM"}
{"SMILES": "Cc1cc(C#N)cc(C)c1Oc1nc(Nc2ccc(C#N)cc2)ncc1C#CC(=O)NCCN1CCN(S(C)(=O)=O)CC1", "method": "MTT", "result": "4.89 µM"}
{"SMILES": "CCn1cc(C(=O)O)c(=O)c2cc(F)c(N3CCN(c4cnccn4)CC3)c(OC(F)F)c21", "result": ">25.07 µg/mL"}
{"SMILES": "C[C@@H]1CN2C[C@H]3CCC4=C5C(=CC[C@@]56C(=O)C1C[C@@H]2[C@@]36C)CC[C@@]41C[C@H]2CC[C@@H]3CN4C[C@@H](C)[C@H]5C[C@@H]4[C@]3(C)[C@]3(CCC1=C23)C5=O", "method": "MTT", "result": "28.1 µM"}
{"SMILES": "O=C(O)c1cn2c3c(c(N4CCN(c5ncccn5)CC4)c(F)cc3c1=O)OCC2CF", "result": ">37.9 µg/mL"}
{"SMILES": "C[C@H](CCC=C(c1cc(Cl)c(O)c(C(=O)O)c1)c1cc(Cl)c(O)c(C(=O)O)c1)[C@H]1CCC2C3C(C[C@H](O)[C@@]21C)[C@@]1(C)CC[C@@H](O)C[C@H]1C[C@H]3O", "result": ">125 µM"}
{"SMILES": "CO[C@@]12C[C@]3(C)CCC[C@H](C)[C@@]3(O)CC1=C(C)C(=O)O2", "method": "MTT", "result": "148.1 µg/mL"}
{"SMILES": "CCCCCO[C@]12CS(=O)(=O)O[C@@]13[C@@H](CN2)O[C@@H](n1cc(C)c(=O)[nH]c1=O)[C@@H]3O[Si](C)(C)C(C)(C)C", "result": "9 µM"}
{"SMILES": "O=C1CSC(c2c(F)cccc2F)N1c1cc(F)cc(F)c1", "result": "139 µM"}
{"SMILES": "COC(=O)C1CCC(NC(=O)C#Cc2cnc(Nc3ccc(C#N)cc3)nc2Oc2c(C)cc(C#N)cc2C)CC1", "method": "MTT", "result": "11.5 µM"}
{"SMILES": "CCO[C@]12CS(=O)(=O)O[C@@]13C(CN2)O[C@@H](n1cc(C)c(=O)n(C)c1=O)[C@@H]3O[Si](C)(C)C(C)(C)C", "result": "49 µM"}
{"SMILES": "COc1ccc(C(=O)/C=C/c2ccccc2)c(O)c1", "method": "MTT", "result": "205 µM"}
{"SMILES": "Cc1ccc(C)c(C(C)S(=O)(=O)c2ccc(C)c[n+]2[O-])c1", "method": "MTT", "result": "26 µg/mL"}
{"SMILES": "CCOC(=O)Oc1nc(=O)n([C@H]2C[C@H](N=[N+]=[N-])[C@@H](COC(=O)[C@]34CCC(C)(C)C[C@H]3C3=CC[C@@H]5[C@@]6(C)CC[C@H](O)C(C)(C)[C@@H]6CC[C@@]5(C)[C@]3(C)CC4)O2)cc1C", "result": "35 µM"}
{"SMILES": "CCc1cccc(N2C(=O)CSC2c2c(F)cccc2Cl)c1", "result": "34.24 µM"}
{"SMILES": "Cc1c(Cc2c(Cl)cccc2Cl)nc(N)nc1Nc1ccc(C#N)cc1", "result": "56.3 µM"}
{"SMILES": "COc1c(C(=O)/C=C(/C)Nc2ccc(Cl)cc2)c(O)c(S(=O)(=O)OC2CCCC2)c2occc12", "method": "MTT", "result": "420 µM"}
{"SMILES": "CCS[C@]12CS(=O)(=O)O[C@@]13[C@@H](CN2)O[C@@H](n1cc(C)c(=O)[nH]c1=O)[C@@H]3O[Si](C)(C)C(C)(C)C", "result": "42 µM"}
{"SMILES": "Cc1ccc(C)c(C(Cl)S(=O)(=O)c2cc(C)cc[n+]2[O-])c1", "method": "MTT", "result": ">4 µg/mL"}
{"SMILES": "CCCOC12CS(=O)(=O)OC13[C@@H](CN2)O[C@@H](n1cc(C)c(=O)[nH]c1=O)[C@@H]3O", "result": ">250 µM"}
{"SMILES": "COc1c(-c2cc(C)[nH]n2)c(O)c(S(=O)(=O)OC2CCCC2)c2occc12", "method": "MTT", "result": "240 µM"}
{"SMILES": "O=C(O)c1cn(C2CC2)c2c(OC(F)F)c(N3CCN(c4ncccc4[N+](=O)[O-])CC3)c(F)cc2c1=O", "result": "125 µg/mL"}
{"SMILES": "C#CCNC(=O)/C=C/c1cnc(Nc2ccc(C#N)cc2)nc1Oc1c(C)cc(C#N)cc1C", "method": "MTT", "result": "141 µM"}
{"SMILES": "O=[N+]([O-])c1ccc[n+]([O-])c1SCc1ccccc1", "method": "MTT", "result": "28 µg/mL"}
{"SMILES": "COc1c(C(=O)/C=C(/C)Nc2ccccc2)c(O)c(S(=O)(=O)Oc2ccc(F)cc2)c2occc12", "method": "MTT", "result": "370 µM"}
{"SMILES": "O=C(O)CCN(CCN(CC(=O)O)Cc1cnc2c(O)cccc2c1)CC(=O)O", "method": "MTT", "result": ">50 µM"}
{"SMILES": "C=C1C(=O)O[C@H]2C[C@H](C)[C@]3(O)C[C@H]4O[C@H]4[C@@H]3C[C@H]12", "method": "MTT", "result": "29.1 µg/mL"}
{"SMILES": "Cc1cn([C@@H]2O[C@@H]3CN[C@@]4(OCC(C)C)CS(=O)(=O)O[C@@]34[C@H]2O)c(=O)[nH]c1=O", "result": ">250 µM"}
{"SMILES": "COc1ccc(C(=O)/C=C/c2ccc(OC)cc2OC)cc1", "method": "MTT", "result": "143 µM"}
{"SMILES": "NC(=O)c1[nH]c2ccc(Cl)cc2c1S(=O)(=O)C1C=CCCC1", "method": "microscopy", "result": ">10 µM"}
{"SMILES": "CCOC(=O)c1c([C@@H]2C[C@H]2c2ccccc2)n(C)c2ccc(O)cc12", "method": "MTT", "result": ">298 µM"}
{"SMILES": "CCn1cc(C(=O)O)c(=O)c2cc(F)c(N3CCN(c4ncccn4)CC3)nc21", "result": "16.8 µg/mL"}
{"SMILES": "O=C1CSC(c2c(F)cccc2Cl)N1c1cc(F)cc(F)c1", "result": "33.45 µM"}
{"SMILES": "COc1c(-c2cc(C)[nH]n2)c(O)c(S(=O)(=O)Oc2ccc([N+](=O)[O-])cc2)c2occc12", "method": "MTT", "result": "220 µM"}
{"SMILES": "Cc1ncc(CO)c(CO)c1O", "result": "3000 µM"}
{"SMILES": "CCCOC12CS(=O)(=O)OC13[C@@H](CN2)O[C@@H](n1cc(C)c(=O)[nH]c1=O)[C@@H]3O[Si](C)(C)C(C)(C)C", "result": "21.6 µM"}
{"SMILES": "O=C1CSC(c2c(Cl)cccc2Cl)N1c1ccccc1", "result": ">429 µM"}
{"SMILES": "NC(=O)c1[nH]c2ccc(Cl)cc2c1S(=O)(=O)CC1CCCCC1", "method": "microscopy", "result": ">10 µM"}
{"SMILES": "Cc1cn([C@@H]2O[C@@H]3CN[C@@]4(OCCOc5ccccc5)CS(=O)(=O)O[C@@]34[C@H]2O[Si](C)(C)C(C)(C)C)c(=O)[nH]c1=O", "result": "4.8 µM"}
{"SMILES": "COc1cccc(N2C(=O)CSC2c2c(F)cccc2F)c1", "result": "151 µM"}
{"SMILES": "Nc1ccn([C@H]2CO[C@@H](CO)S2)c(=O)n1", "result": ">100 µM"}
{"SMILES": "c1ccc(COC[C@H]2O[C@H](O[C@H]3[C@H](OCc4ccccc4)[C@H](OCc4ccccc4)[C@@H]4OC[C@H]3O4)[C@H](OCc3ccccc3)[C@@H](OCc3ccccc3)[C@H]2OCc2ccccc2)cc1", "method": "MTT", "result": ">200 µg/mL"}
{"SMILES": "COc1cccc(N2CCN(c3c(F)cc4c(=O)c(C(=O)O)cn(C5CC5)c4c3OC(F)F)CC2)c1", "result": "24.86 µg/mL"}
{"SMILES": "Cc1cn([C@@H]2O[C@@H]3CN[C@@]4(OCC5CCOC5)CS(=O)(=O)O[C@@]34[C@H]2O[Si](C)(C)C(C)(C)C)c(=O)[nH]c1=O", "result": "29 µM"}
{"SMILES": "COc1c(-c2cc(C)[nH]n2)c(O)c(S(=O)(=O)Oc2ccc(F)cc2)c2occc12", "method": "MTT", "result": "160 µM"}
{"SMILES": "Cc1ccc(C)c(CS(=O)(=O)c2cccc[n+]2[O-])c1", "method": "MTT", "result": "34 µg/mL"}
{"SMILES": "CCn1cc(C(=O)O)c(=O)c2cc(F)c(N3CCN(c4ccccc4OC)CC3)c(OC(F)F)c21", "result": "10 µg/mL"}
{"SMILES": "CCOC(=O)c1[nH]c2ccc(Cl)cc2c1SC1CCC1", "method": "microscopy", "result": ">10 µM"}
{"SMILES": "O=C1CSC(c2c(Cl)cccc2Cl)N1c1cccc([N+](=O)[O-])c1", "result": "15.98 µM"}
{"SMILES": "C=C(C)[C@@H]1CC[C@]2(C(=O)O)CC[C@]3(C)[C@H](CC[C@@H]4[C@@]5(C)CC[C@H](OC(=O)CCCC(=O)OC[C@H]6OC(n7cc(C)c(=O)[nH]c7=O)C[C@@H]6N=[N+]=[N-])C(C)(C)[C@@H]5CC[C@]43C)[C@@H]12", "result": "17 µM"}
{"SMILES": "Cc1ccc(Nc2nc(N)nc(Cc3c(Cl)cccc3Cl)c2C)cc1", "result": ">100 µM"}

The last 5 rows once more:

SMILES | method | result
CCn1cc(C(=O)O)c(=O)c2cc(F)c(N3CCN(c4ccccc4OC)CC3)c(OC(F)F)c21 |  | 10 µg/mL
CCOC(=O)c1[nH]c2ccc(Cl)cc2c1SC1CCC1 | microscopy | >10 µM
O=C1CSC(c2c(Cl)cccc2Cl)N1c1cccc([N+](=O)[O-])c1 |  | 15.98 µM
C=C(C)[C@@H]1CC[C@]2(C(=O)O)CC[C@]3(C)[C@H](CC[C@@H]4[C@@]5(C)CC[C@H](OC(=O)CCCC(=O)OC[C@H]6OC(n7cc(C)c(=O)[nH]c7=O)C[C@@H]6N=[N+]=[N-])C(C)(C)[C@@H]5CC[C@]43C)[C@@H]12 |  | 17 µM
Cc1ccc(Nc2nc(N)nc(Cc3c(Cl)cccc3Cl)c2C)cc1 |  | >100 µM